EC50 data for one compound are collected here from patent publication US10987371B2 (priority 2017, dated 2021).

The assay concerns EBOV-Kikwit-GFP.

Compound `O=c1c(O[C@@H]2O[C@H](CO)[C@@H](O)[C@H](O)[C@H]2O)c(-c2ccc(O)c(O)c2)oc2cc(O)cc(O)c12` [Q3G, Quercetin-3-β-O-D-glucoside] showed an EC50 of 5.3 µM.
